Data taken from patent publication US20160304570A1, “Potent and selective inhibitors of nav1.3 and nav1.7” (published 2016).

Experiments:
Assay in all cases: cell-based or functional assay
[1] = molecular target: human voltage-gated sodium channel Nav1.7 (human), Q15858
[2] = molecular target: human voltage-gated sodium channel Nav1.5 (human), Q14524
[3] = molecular target: human voltage-gated sodium channel Nav1.3 (human), Q9NY46

Binder	IWQ Use Nav1.7 (µM) (IC50, IonWorks Quattro population patch clamp) [1]	IWQ Use Nav1.5 (µM) (IC50, IonWorks Quattro population patch clamp) [2]	IWQ Use Nav1.3 (µM) (IC50, IonWorks Quattro population patch clamp) [3]	IWQ Use Nav1.7 [1] [µM]	IWQ Use Nav1.5 [2] [µM]	IWQ Use Nav1.3 [3] [µM]	also measured
DCLGFMRKCIPDNDKCCRPNLVCSRTHKWCKYVFR (modifications not checked) [GpTx-1(1-34)-Arg]	0.3	9.73	0.1	–	–	–	–
DCLGFMRKCIPDNDKCCRPNLVCSRTHKWCKYVFW (modifications not checked) [GpTx-1(1-34)-Trp]	0.05	7.87	0.07	–	–	–	Nav1.7 Use IC50 (PatchXpress whole cell patch clamp) [1]: 9 nM; Nav1.5 Use IC50 (PatchXpress whole cell patch clamp) [2]: 2.66 µM; Nav1.3 Use IC50 (PatchXpress whole cell patch clamp) [3]: 0.015 µM
DCLGFMRKCIPDNDKCCRPNLVCSRTHKWCKYVFW (modifications not checked) [GpTx-1(1-34)-Trp-FreeAcid]	0.48	8.28	0.11	–	–	–	–
DCLGFMRKCIPDNDKCCRPNLVCSRTHKWCKYV (modifications not checked) [GpTx-1(1-33)]	2.35	10.8	1.3	–	–	–	–
DCLGFMRKCIPDNDKCCRPNLVCSRTHKWCKY (modifications not checked) [GpTx-1(1-32)]	1.5	8.64	0.88	–	–	–	–
DCLGFMRKCIPDNDKCCRPNLVCSRTHKWCK (modifications not checked) [GpTx-1(1-31)]	18.3	11.9	9.09	–	–	–	–
DALGFMRKCIPDNDKCARPNLVCSRTHKWCKYVF (modifications not checked) [[Ala2,17]GpTx-1(1-34)]	–	–	–	–	–	–	IWQ Use Nav1.7 (µM); IC50 of peak inward current, IonWorks Quattro [1]: 2.45 µM; IWQ Use Nav1.5 (µM); IC50 of peak inward current, IonWorks Quattro [2]: 18.9 µM; IWQ Use Nav1.3 (µM); IC50 of peak inward current, IonWorks Quattro [3]: 0.79 µM
DCLGFMRKCIPDNDKCCEGLVCSRTHKWCKYVF (modifications not checked) [[Glu18;desAsn20]GpTx-1(1-34)]	–	–	–	–	–	–	IWQ Use Nav1.7 (µM); IC50 of peak inward current, IonWorks Quattro [1]: 0.89 µM; IWQ Use Nav1.5 (µM); IC50 of peak inward current, IonWorks Quattro [2]: 11.5 µM; IWQ Use Nav1.3 (µM); IC50 of peak inward current, IonWorks Quattro [3]: 0.51 µM
DCLGFMRKCIPDNDKCCRPNLVCSRTHKWCKKVFW (modifications not checked) [[Lys32]GpTx-1(1-34)-Trp]	–	–	–	–	–	–	IWQ Use Nav1.7 (µM); IC50 of peak inward current, IonWorks Quattro [1]: 0.73 µM; IWQ Use Nav1.5 (µM); IC50 of peak inward current, IonWorks Quattro [2]: 18.9 µM; IWQ Use Nav1.3 (µM); IC50 of peak inward current, IonWorks Quattro [3]: 0.7 µM
TCLGFMRKCIPDNDKCCRPNLVCSRTHKWCKYVF (modifications not checked) [[Thr1]GpTx-1(1-34)]	–	–	–	0.11	9.21	0.07	–
DCLGAFRKCIPDNDKCCRPNLVCSRTHKWCKYVF (modifications not checked) [[Ala5;Phe6]GpTx-1(1-34)]	–	–	–	–	–	–	IWQ Use Nav1.7 (µM); IC50 of peak inward current, IonWorks Quattro [1]: 0.07 µM; Nav1.7 Use IC50 (PatchXpress electrophysiology) [1]: 0.012 µM; IWQ Use Nav1.5 (µM); IC50 of peak inward current, IonWorks Quattro [2]: 5 µM; Nav1.5 Use IC50 (PatchXpress electrophysiology) [2]: > 10 µM; IWQ Use Nav1.3 (µM); IC50 of peak inward current, IonWorks Quattro [3]: 0.05 µM; Nav1.3 Use IC50 (PatchXpress electrophysiology) [3]: 0.022 µM
DCAGFMRKCIPDNDKCCRPNLVCSRTHKWCKYVF (modifications not checked) [[Ala3]GpTx-1(1-34)]	–	–	–	0.51	19	0.1	Nav1.7 Use IC50 (PatchXpress electrophysiology) [1]: 0.012 µM; Nav1.5 Use IC50 (PatchXpress electrophysiology) [2]: > 10 µM
DCEGFMRKCIPDNDKCCRPNLVCSRTHKWCKYVF (modifications not checked) [[Glu3]GpTx-1(1-34)]	–	–	–	0.67	10.5	0.83	Nav1.7 Use IC50 (PatchXpress electrophysiology) [1]: 0.041 µM; Nav1.5 Use IC50 (PatchXpress electrophysiology) [2]: > 10 µM
DCRGFMRKCIPDNDKCCRPNLVCSRTHKWCKYVF (modifications not checked) [[Arg3]GpTx-1(1-34)]	–	–	–	0.03	8.45	0.05	–
DCQGFMRKCIPDNDKCCRPNLVCSRTHKWCKYVF (modifications not checked) [[Gln3]GpTx-1(1-34)]	–	–	–	0.25	16.4	0.24	–
DCLGAFRKCIPDNDKCCRPNLVCSRTHKWCKYVF (modifications not checked) [[D-Ala5;Phe6]GpTx-1(1-34)]	–	–	–	2.1	13.1	2.7	–
DCLGMFRKCIPDNDKCCRPNLVCSRTHKWCKYVF (modifications not checked) [[Met5;Phe6]GpTx-1(1-34)]	–	–	–	0.043	13.3	0.11	–
DCLGLFRKCIPDNDKCCRPNLVCSRTHKWCKYVF (modifications not checked) [[Leu5;Phe6]GpTx-1(1-34)]	–	–	–	0.057	20.1	0.22	–
DCLGSFRKCIPDNDKCCRPNLVCSRTHKWCKYVF (modifications not checked) [[Ser5;Phe6]GpTx-1(1-34)]	–	–	–	–	–	–	IWQ Use Nav1.7 (µM), IC50 of peak inward current [1]: 0.76 µM; Nav1.7 Use IC50 (PatchXpress electrophysiology) [1]: 0.024 µM; IWQ Use Nav1.5 (µM), IC50 of peak inward current [2]: 11.9 µM; Nav1.5 Use IC50 (PatchXpress electrophysiology) [2]: > 10 µM; IWQ Use Nav1.3 (µM), IC50 of peak inward current [3]: 1.7 µM
